# Target: Replicase polyprotein 1ab (Severe acute respiratory syndrome coronavirus 2) (UniProt P0DTD1)
# Assay: Time dependent inhibition of recombinant his tagged SARS CoV-2 main protease expressed in Escherichia coli BL21 assessed as ratio of Kinact/Ki using MCA-AVLQSGFR-K(DNP)-K-NH2 as substrate pre-incubated for 5 mins followed by substrate addition measured after 60 mins by FRET based assay
row,SMILES,Ratio [M⁻¹ s⁻¹]
1,Cc1ccnc(SC(=O)c2cc3ccccc3[nH]2)n1,27200
2,Cc1nnc(SC(=O)c2cccc3cc[nH]c23)s1,3690
3,O=C(Sc1nc2ccccc2s1)c1cc2ccccc2[nH]1,14200
4,Cc1nnc(SC(=O)c2ccc3ccccc3c2)s1,6960
5,COc1nnc(SC(=O)c2cc3ccccc3[nH]2)s1,7870
6,Cc1nnc(SC(=O)c2cc3ccccc3n2C)s1,7170
7,O=C(Sc1ncccn1)c1cc2ccccc2[nH]1,58700
8,O=C(Sc1nncs1)c1cc2ccccc2[nH]1,10700
